Test results reported in PMC12777753 (Emerging Microbes & Infections, 2025).
Values after ≈ are worked out from the molar mass of the structure shown. Structures can show the parent of a compound that is named as a salt.

Assays:
[1] = target: NA of A/California/146/2024, NA-S439G (Influenza A virus, UniProt Q9Q0U7, S439G); conditions: virus with NA-S439G
[2] = test system: A/Washington/240/2024, NA-K432R; conditions: A/Washington/240/2024 (genotype D1.1); M2 blocker range 3.9–1000 ng/mL
[3] = test system: A/Iowa/24/2024, M2-S31N; conditions: A/Iowa/24/2024, M2-S31N (genotype D1.1); M2 blocker range 3.9–1000 ng/mL
[4] = test system: A/Washington/239/2024, NA-K432R; conditions: A/Washington/239/2024 (genotype D1.1); M2 blocker range 3.9–1000 ng/mL
[5] = test system: A/California/146/2024, NA-S439G; conditions: A/California/146/2024 (genotype B3.13); M2 blocker range 3.9–1000 ng/mL
[6] = test system: A/California/135/2024, NA-S439G; conditions: A/California/135/2024 (genotype B3.13); M2 blocker range 3.9–1000 ng/mL

Row | SMILES | interpretation of inhibition [1] | EC50 ± SD [2] [µg/mL] | EC50 ± SD [3] [µg/mL] | EC50 ± SD [4] [µg/mL] | EC50 ± SD [5] [µg/mL] | EC50 ± SD [6] [µg/mL]
1 | CC(=O)N[C@H]1[C@H]([C@H](O)[C@H](O)CO)OC(C(=O)O)=C[C@@H]1N=C(N)N | normal inhibition (normal inhibition if <10-fold) |  |  |  |  | 
2 | NC12CC3CC(CC(C3)C1)C2 [Amantadine, amantadine hydrochloride] |  | 0.01141 ± 0.003 | >1 | 0.00925 ± 0.00247 | 0.02154 ± 0.00386 | 0.01827 ± 0.00109
3 | CC(N)C12CC3CC(CC(C3)C1)C2 (centres unmarked) [Rimantadine, rimantadine] |  | 0.00346 ± 8e-05 (≈ 0.0193 µM) | >1 | 0.00314 ± 0.00031 (≈ 0.0175 µM) | 0.00648 ± 0.00114 (≈ 0.0361 µM) | 0.00483 ± 0.00015 (≈ 0.0269 µM)
